A mixed list of measured activities; the numbers were collected in NIAID ChemDB.

Shared fields: growth or infection tests; organism: Candida albicans; measure: MIC

Blank or dashed fields: not listed here. Conditions beyond the fields shown may differ between rows.

structure,conditions,strain,read by,value
O=C(/C=C/c1ccccc1Cl)c1ccc(C(=O)/C=C/c2ccccc2Cl)cc1,-,ATCC 10231,agar diffusion / agar,200 µg/mL
C[C@H]1C(=O)CCC2[C@]3(C)CC[C@@]4(C)C5CC(C)(C)CC[C@]5(C)CC[C@]4(C)C3CC[C@@]21C,-,-,absorbance,>250 µg/mL
CCCc1ccc(NS(=O)(=O)c2ccc(CN(C)CC(O)(Cn3cncn3)c3ccc(F)cc3F)cc2)cc1,-,CAAL-74,resazurin,0.011 µg/mL
CC1(C)S[C@@H]2[C@H](NC(=O)[C@H](N)c3ccc(O)cc3)C(=O)N2[C@H]1C(=O)O,-,MTCC 183,visual reading,660 µg/mL
CCCCCOc1ccc(-c2ccc(-c3ccc(C(=O)N[C@H]4CCCNC(=O)C5C[C@H](NCC(=O)O)CN5C(=O)C(C(C)O)NC(=O)C(CCc5ccc(O)cc5)NC(=O)C5C[C@@H](O)CN5C(=O)C(C(C)O)NC4=O)cc3)cc2)cc1,-,ATCC 62376,-,0.78 µg/mL
CC(C)[C@@H](NC(=O)N[C@@H](CCCN=C(N)N)CC(N)=O)NC(=O)[C@H]1CCCC[C@@H]1NC(=O)C[C@H](CCCN=C(N)N)NC(=O)N[C@@H](NC(=O)[C@H]1CCCC[C@@H]1NC(=O)C[C@H](CCCN=C(N)N)NC(=O)N[C@@H](NC(=O)[C@H]1CCCC[C@@H]1NC(=O)C[C@@H](N)Cc1ccc(O)cc1)C(C)C)C(C)C,-,SC5314,XTT / broth dilution,8 µg/mL
CC[C@@H]([C@H](C)O)n1ncn(-c2ccc(N3CCN(c4ccc(OC[C@@H]5CO[C@@](Cn6cncn6)(c6ccc(F)cc6F)C5)cc4)CC3)cc2)c1=O,pH 6,15 isolates,broth dilution,0.03 µg/mL
CC1(C)S[C@@H]2[C@H](NC(=O)Cc3ccccc3)C(=O)N2[C@H]1C(=O)O,-,-,MTT / broth dilution,>50 µg/mL
CC(C)CC1NC(=O)CC(CCCCCCCCC(C)O)OC(=O)C(CC(C)C)NC(=O)C(CC(C)C)NC(=O)C(CC(C)C)NC(=O)C(C(C)C)NC(=O)C(CC(=O)O)NC(=O)C(CC(C)C)NC1=O,-,Clinical isolate,absorbance,2 µg/mL
Clc1ccccc1C(c1ccccc1)(c1ccccc1)n1ccnc1,-,B311,visual reading,2 µg/mL
CN(Cc1ccc(S(=O)(=O)NC(C)(C)C)cc1)CC(O)(Cn1cncn1)c1ccc(F)cc1F,-,98 001,resazurin,<0.001 µg/mL
Cc1ccc(-c2cnc(Nc3ccc(OCCCN4CCN(C)CC4)nc3)c(C(N)=O)n2)c(F)c1,-,-,resazurin,>32 µg/mL
Nc1[nH]c(=O)ncc1F,pH 4,10 isolates,broth dilution,0.5 µg/mL
CCCCCCCC/C=C\CCCCCCCC(=O)N[C@H](C(=O)N1C[C@H](C)C[C@H]1C(=O)N[C@H](C(=O)N[C@@H](CCO)C(=O)N[C@@H](C)CO)C(C)C)[C@@H](C)O,-,MY1055,broth dilution / visual reading,>32 µg/mL
COC(=O)[C@H]1[C@@H]2C[C@@H](O[C@@H]3O[C@H](C)[C@@H](O)[C@H](N)[C@@H]3O)/C=C/C=C/C=C/C=C/C=C/C=C/C=C/[C@H](C)[C@@H](O)[C@H](C)[C@H](C)OC(=O)C[C@H](O)C[C@H](O)[C@@H](O)CC[C@H](O)C[C@H](O)C[C@](O)(C[C@@H]1O)O2,pH 4,10 isolates,broth dilution,16 µg/mL
CCC(C)CC(C)CCCCCCCCC(=O)N[C@H]1C[C@@H](O)[C@H](NCCN)NC(=O)[C@@H]2[C@@H](O)CCN2C(=O)[C@H]([C@H](O)CCN)NC(=O)[C@H]([C@H](O)[C@@H](O)c2ccc(O)cc2)NC(=O)[C@@H]2C[C@@H](O)CN2C(=O)[C@H]([C@@H](C)O)NC1=O,-,C697,broth dilution,0.06 µg/mL
C=C1CC[C@@H]2C[C@H]1C2(C)C,-,ATCC 10231,agar diffusion / agar,187 µg/mL
CC[C@H]1O[C@]2(CC[C@@H]1C)CC1C[C@@H](C/C=C(\C)C[C@@H](C)/C=C/C=C3\CO[C@@H]4/C(=N\O)C(C)=C[C@@H](C(=O)O1)[C@]34O)O2,-,SC5314,broth dilution / agar diffusion,25.6 µg/mL
CCN(CC)c1ccc(/C=N/NC(=O)c2ccccc2F)c(O)c1,-,-,MTT / broth dilution,>50 µg/mL
Oc1cccc(O)c1O,-,20 strains,broth dilution / visual reading,80 µg/mL
Clc1ccccc1C(c1ccccc1)(c1ccccc1)n1ccnc1,pH 6,10 isolates,broth dilution,0.03 µg/mL
CCC(C)n1ncn(-c2ccc(N3CCN(c4ccc(OC[C@H]5CO[C@](Cn6cncn6)(c6ccc(Cl)cc6Cl)O5)cc4)CC3)cc2)c1=O,-,B311,visual reading,>64 µg/mL
Nc1c(Br)cc(Br)cc1CNC1CCC(O)CC1,-,ATCC 90029,MTT,1000 µg/mL
CCC(C)[C@H](N)CC(=O)N[C@@H](CC)NC(=O)N[C@@H](CCCN=C(N)N)CC(=O)N[C@H](CC(=O)N[C@@H](CC)NC(=O)N[C@@H](CCCN=C(N)N)CC(=O)N[C@H](CC(=O)N[C@@H](CC)NC(=O)N[C@@H](CCCN=C(N)N)CC(N)=O)C(C)CC)C(C)CC,-,SC5314,XTT / broth dilution,128 µg/mL
CC[C@H]1O[C@]2(CC[C@@H]1C)CC1C[C@@H](C/C=C(\C)C[C@@H](C)/C=C/C=C3\CO[C@@H]4C(O)C(C)=C[C@@](C)(C(=O)O1)[C@]34O)O2,-,SC5314,broth dilution / agar diffusion,6.4 µg/mL
CCCCCOc1ccc(-c2ccc(-c3ccc(C(=O)N[C@H]4CCCNC(=O)C5C[C@H](N)N5C(=O)C(C(C)O)NC(=O)C(CCc5ccc(O)cc5)NC(=O)C5C[C@@H](O)CN5C(=O)C(C(C)O)NC4=O)cc3)cc2)cc1,-,ATCC 62376,-,0.2 µg/mL
CC(C)S(=O)(=O)Nc1ccc(CN(C)CC(O)(Cn2cncn2)c2ccc(F)cc2F)cc1,-,98 001,resazurin,0.026 µg/mL
CC1=CC[C@@H]2C[C@H]1C2(C)C,-,ATCC 10231,agar diffusion / agar,>20000 µg/mL
CO/N=C/C(C)(C)C(O)(Cn1cncn1)c1ccc(Cl)cc1,-,B311,visual reading,16 µg/mL
CC(O)C1NC(=O)C(CCc2ccc(O)cc2)NC(=O)C2C[C@@H](O)CN2C(=O)C(C(C)O)NC(=O)[C@@H](NC(=O)c2ccc(N3CCN(c4ccc(O)cc4)CC3)cc2)CCCNC(=O)C2C[C@H](N)CN2C1=O,-,ATCC 10231,-,25 µg/mL
CC(C)S(=O)(=O)N1CCN(c2cnn(-c3cc(F)cc(F)c3)c(=O)c2OC2CCC(F)C2)CC1,-,C-43,broth dilution,0.125 µg/mL
CC1(C)CC[C@]2(C)CC=C3[C@]4(C)CCC5C(C)(C)[C@@H](O)CC[C@]5(C)C4CC[C@@]3(C)C2C1,-,-,absorbance,>250 µg/mL
COc1cc(C[C@@]2(O)CO[C@H](c3ccc(O)c(OC)c3)[C@H]2CO[C@@H]2O[C@H](CO)[C@@H](O)[C@H](O)[C@H]2O)ccc1O,-,ATCC 90028,MTT,6 µg/mL
Cc1ccc(-c2cnc(Nc3cnc(OCCCN4CCN(C)CC4)nc3)c(C(N)=O)n2)c(C)c1,-,-,resazurin,>32 µg/mL
CC(C)[C@@H](NC(=O)N[C@@H](CCCN=C(N)N)CC(N)=O)NC(=O)[C@H]1CCCC[C@@H]1N,-,SC5314,XTT / broth dilution,8 µg/mL
CC(C)c1ccc(NS(=O)(=O)c2ccc(CN(C)CC(O)(Cn3cncn3)c3ccc(F)cc3F)cc2)cc1,-,CAAL-74,resazurin,0.17 µg/mL
CC(C)[C@H](NC(=O)C[C@@H](NC(=O)C[C@H](CCCCN)NC(=O)N[C@@H](NC(=O)C[C@@H](NC(=O)C[C@H](CCCCN)NC(=O)N[C@@H](NC(=O)C[C@@H](N)C(C)C)C(C)C)C(C)C)C(C)C)C(C)C)NC(=O)N[C@@H](CCCCN)CC(N)=O,-,SC5314,XTT / broth dilution,128 µg/mL
CC(C)c1ccc(S(=O)(=O)Nc2ccc(CN(C)CC(O)(Cn3cncn3)c3ccc(F)cc3F)cc2)cc1,-,DSY735,resazurin,0.24 µg/mL

Repeating the final 5 entries:

structure | conditions | strain | read by | value
Cc1ccc(-c2cnc(Nc3cnc(OCCCN4CCN(C)CC4)nc3)c(C(N)=O)n2)c(C)c1 | - | - | resazurin | >32 µg/mL
CC(C)[C@@H](NC(=O)N[C@@H](CCCN=C(N)N)CC(N)=O)NC(=O)[C@H]1CCCC[C@@H]1N | - | SC5314 | XTT / broth dilution | 8 µg/mL
CC(C)c1ccc(NS(=O)(=O)c2ccc(CN(C)CC(O)(Cn3cncn3)c3ccc(F)cc3F)cc2)cc1 | - | CAAL-74 | resazurin | 0.17 µg/mL
CC(C)[C@H](NC(=O)C[C@@H](NC(=O)C[C@H](CCCCN)NC(=O)N[C@@H](NC(=O)C[C@@H](NC(=O)C[C@H](CCCCN)NC(=O)N[C@@H](NC(=O)C[C@@H](N)C(C)C)C(C)C)C(C)C)C(C)C)C(C)C)NC(=O)N[C@@H](CCCCN)CC(N)=O | - | SC5314 | XTT / broth dilution | 128 µg/mL
CC(C)c1ccc(S(=O)(=O)Nc2ccc(CN(C)CC(O)(Cn3cncn3)c3ccc(F)cc3F)cc2)cc1 | - | DSY735 | resazurin | 0.24 µg/mL